A mixed list of measured activities; the numbers were collected in NIAID ChemDB.

Common to all: whole-cell or culture tests; agent: HIV-1; measure: inhibition

Inhibition is in % at the dose shown (toxicity tests: loss of growth or viability). Neighbouring rows are from separate reports. An empty or dashed field is not shown.

compound | cells | strain or isolate | tested at | read by | conditions | mutations | value
CC(C)(CO)[C@@H](O)C(=O)NCCCC(=O)O | MT-4 | LAV | 1 µg/mL | - | - | - | 0%
Cc1ccc(C(=O)OC[C@H]2O[C@H](n3cc(-c4sccc4C)c(=O)[nH]c3=O)C[C@@H]2OC(=O)c2ccc(C)cc2)cc1 | H9 | IIIB | 1 µg/mL | RT activity | - | - | 60%
Nc1ccn([C@@H]2C=C[C@@H](CO)[C@H](CO)S2)c(=O)n1 | PBMC | - | 0.01 µM | p24 / antigen | - | - | 35%
Nc1nc(=O)n([C@H]2C[C@H](O)[C@@H](CO)O2)cc1-c1cccs1 | H9 | IIIB | 10 µg/mL | RT activity | - | - | <10%
O=c1cc(-c2ccc(O)c(O)c2)oc2cc(O[C@@H]3O[C@H](CO)[C@@H](O)[C@H](O)[C@H]3OS(=O)(=O)O)cc(O)c12 | MT-2 | - | 300 µM | p24 | - | - | >95%
Nc1ncnc2c1ncn2C[C@@H](CO)OCP(=O)(O)O | MT-4 | IIIB | 125 µM | cytopathic effect / antigen / trypan blue | - | - | 42%
CCC(C)C(=O)O[C@H]1C(C)(C)[C@H](C(O)C(=O)OC)[C@]2(C)C(=O)[C@@]1(O)[C@@H](O)C1=C3CC(=O)O[C@@H](c4ccoc4)[C@]3(C)CC[C@@H]12 | SupT1 | NL4-3 | 100 µM | luciferase / luminescence | pseudotyped | - | 15.15%
CCCCCCCCCC(=O)O[C@@]12[C@H](OCOC)[C@@H](C)[C@@]3(O)[C@@H](C=C(CO)C[C@]4(O)C(=O)C(C)=C[C@@H]34)[C@@H]1C2(C)C | MT-4 | IIIB | 0.1 µg/mL | cytopathic effect / MTT | - | - | 100%
CCC(C)C(=O)O[C@@H]1C(=O)/C=C2/C3=CC(=O)O[C@@H](c4ccoc4)[C@]3(C)CC[C@@H]2[C@@]2(C)C(=O)C[C@]1(C)[C@@H]2[C@@H](O)C(=O)OC | SupT1 | NL4-3 | 20 µM | luciferase / luminescence | pseudotyped | - | 14.77%
C[C@H]1COc2c(N3CCN(C)CC3)c(F)cc3c(=O)c(C(=O)O)cn1c23 | MT-4 | IIIB | 50 µg/mL | cytopathic effect / XTT | - | - | 10%
COC(=O)C(O)[C@H]1[C@]2(C)C[C@]3(O)[C@@](O)(C(=O)C4=C(CC[C@]5(C)C4=CC(=O)O[C@H]5c4ccoc4)[C@]13C)[C@H]2OC(=O)C(C)C | SupT1 | NL4-3 | 20 µM | luciferase / luminescence | pseudotyped | - | 0%
CC(C)NCC(O)COc1cccc2[nH]ccc12 | MT-4 | LAV | 100 µg/mL | - | - | - | 0%
C[C@H]1CCC/C=C/[C@@H]2C[C@H](O)C[C@H]2[C@@H](O)/C=C/C(=O)O1 | MOLT-3 | IIIB | 5 µg/mL | - | - | - | 80%
Cc1cn(CCOCP(=O)(O)O)c(=O)[nH]c1=O | MT-4 | IIIB | 125 µM | cytopathic effect / trypan blue | - | - | 30%
Cc1cn([C@H]2C=C[C@@H](CO)O2)c(=O)[nH]c1=O | PBMC | LAV | 0.1 µM | RT activity | - | - | 71.8%
OCCN1CCN(CCCN2c3ccccc3Sc3ccc(Cl)cc32)CC1 | MT-4 | LAV | 10 µg/mL | - | - | - | 96%
Cc1cn([C@H]2C[C@H](N=[N+]=[N-])[C@@H](COC(=O)CCC(=O)Nc3ccn([C@H]4CC[C@@H](CO)O4)c(=O)n3)O2)c(=O)[nH]c1=O | - | - | 1 µM | cytopathic effect | - | - | 100%
Cc1ccc(C(=O)OC[C@H]2O[C@@H](n3cc(-c4cccs4)c(N)nc3=O)C[C@@H]2O)cc1 | H9 | IIIB | 10 µg/mL | RT activity | - | - | 5%
CCN1CCCC1CNC(=O)c1cc(S(N)(=O)=O)ccc1OC | MT-4 | LAV | 100 µg/mL | - | - | - | 0%
Cc1ccc(C(=O)OC[C@H]2O[C@@H](n3cc(-c4sccc4C)c(=O)[nH]c3=O)C[C@@H]2OC(=O)c2ccc(C)cc2)cc1 | H9 | IIIB | 10 µg/mL | RT activity | - | - | ≥60%
CC[C@H](C)C=C(C)/C=C/C1=CC2=C(Cl)C(=O)[C@](C)(O)[C@H](CC(C)=O)C2=CO1 | PBL | - | 25 µM | p24 | - | - | ~90%
CCCCN1C(=O)C(=C/C=C/C=C2/Oc3ccccc3N2CCCS(=O)(=O)O)C(=O)N(CCCC)C1=S | PBMC | IIIB | 200 µg/mL | ELISA | 15 d | - | 98.5%
Nc1nc(=O)n([C@@H]2C[C@H](O)[C@@H](CO)O2)cc1-c1ccc(-c2ccccc2)s1 | H9 | IIIB | 10 µg/mL | RT activity | - | - | <35%
c1cc(CN2CCCNCCNCCCNCC2)ccc1CN1CCCNCCNCCCNCC1 | PBMC | 92RW026 CLADE A R5 | 0.5 µM | p24 | - | - | 63%
NC12CC3CC(CC(C3)C1)C2 | MT-4 | LAV | 10 µg/mL | - | - | - | 80%
CCC(C)C(=O)O[C@H]1C(C)(C)[C@H](CC(=O)OC)[C@]2(C)C(=O)[C@@]1(O)C=C1C3=CC(=O)O[C@@H](c4ccoc4)[C@]3(C)CC[C@@H]12 | SupT1 | NL4-3 | 100 µM | luciferase / luminescence | pseudotyped | - | 98.56%
CCOC(CN1CCN(CC(C)C(=O)c2ccccc2)CC1)c1ccccc1 | MT-4 | LAV | 1 µg/mL | - | - | - | 0%
Cc1cn([C@H]2C[C@H](N=[N+]=[N-])[C@@H](CO)O2)c(=O)[nH]c1=O | MT-4 | IIIB-R (RT-Y181C) | 0.0085 µM | cytopathic effect / MTT | - | RT-Y181C | 90%
CN1CCN(CCCN2c3ccccc3Sc3ccc(Cl)cc32)CC1 | MT-4 | LAV | 100 µg/mL | - | - | - | >96%
CCCCCCCCCC(=O)O[C@@]12[C@H](OC(C)=O)[C@@H](C)[C@@]3(O)[C@@H](C=C(CO)C[C@]4(O)C(=O)C(C)=C[C@@H]34)[C@@H]1C2(C)C | MT-4 + mouse plasma + MT-4 | IIIB | 0.1 µg/mL | cytopathic effect / MTT | - | - | 60.2%
Nc1nc(=O)n([C@H]2C[C@H](O)[C@@H](CO)O2)cc1-c1ccc(-c2ccccc2)s1 | H9 | IIIB | 10 µg/mL | RT activity | - | - | 32.5%
Nc1nc(N)c2ncn(CCOCP(=O)(O)O)c2n1 | H9 | IIIB | 0.2 µM | antigen | - | - | 67.5%
O=C1Nc2ccc(Cl)cc2C(c2ccccc2Cl)=NC1O | MT-4 | LAV | 10 µg/mL | - | - | - | 85%
COc1ccc(Cc2nccc3cc(OC)c(OC)cc23)cc1OC | PBMC | IIIB | 10 µg/mL | syncytia / trypan blue | - | - | 45.6%
NC(=O)C[C@H](NC(=O)c1ccc2ccccc2n1)C(=O)N[C@@H](Cc1ccccc1)[C@H](O)CN[C@@H](Cc1ccccc1)C(=O)N[C@H]1c2ccccc2C[C@H]1O | MT-4 | IIIB | 0.0125 µM | p24 | - | - | 95%

A second listing of 4 rows from above:

{"compound": "CCOC(CN1CCN(CC(C)C(=O)c2ccccc2)CC1)c1ccccc1", "cells": "MT-4", "strain or isolate": "LAV", "tested at": "1 µg/mL", "value": "0%"}
{"compound": "c1cc(CN2CCCNCCNCCCNCC2)ccc1CN1CCCNCCNCCCNCC1", "cells": "PBMC", "strain or isolate": "92RW026 CLADE A R5", "tested at": "0.5 µM", "read by": "p24", "value": "63%"}
{"compound": "CCCCCCCCCC(=O)O[C@@]12[C@H](OCOC)[C@@H](C)[C@@]3(O)[C@@H](C=C(CO)C[C@]4(O)C(=O)C(C)=C[C@@H]34)[C@@H]1C2(C)C", "cells": "MT-4", "strain or isolate": "IIIB", "tested at": "0.1 µg/mL", "read by": "cytopathic effect / MTT", "value": "100%"}
{"compound": "CC(C)NCC(O)COc1cccc2[nH]ccc12", "cells": "MT-4", "strain or isolate": "LAV", "tested at": "100 µg/mL", "value": "0%"}